Results: patent US5670155A

How the values were obtained:
[1] = test system: Sup T1 target cells with H9/IIIB infected cells; experiment: Inhibition of syncytium formation; settings: 3 day incubation; compared with soluble CD4 and CD4 hexapeptide residues 40-45, FIG. 6; tested form: TFA
Description: Sup T1 cells (see Weiner et al., Pathobiology: 4:1-20 (1991)) were used as target cells for infection. Dilutions (1:2) of soluble CD4, CD4 mimetic, or CD4 peptide were made in 96 well plates in RPMI 1640 media containing 10% fetal calf serum. H9/IIIB infected cells were then plated at a density of approximately 10^4 cells per well. Sup T1 target cells were then added (5×10^5 per well) and syncytium formation was qualitatively and quantitatively determined after a 3 day incubation period. The results using soluble CD4, the reverse turn mimetic shown in FIG. 5, or the CD4 hexapeptide comprising residues 40-45 are shown in FIG. 6. The number of syncytia per well counted on visual inspection was plotted against the concentration of CD4, mimetic, or peptide added.

[2] = molecular target: gp120 (Human immunodeficiency virus type 1 group M subtype B, UniProt P03375); settings: tested form: TFA

## CC(C)C[C@H](NC(=O)[C@H](Cc1ccccc1)N1NC(=O)[C@H]([C@@H](N)CO)CCC(=O)N[C@@H](CO)C1=O)C(=O)N[C@H](C(=O)NCc1ccccc1)C(C)O (some centres unmarked)
[1]
  Inhibition of syncytium formation: superior inhibition of syncytium formation
[2]
  IC50: 800 nM
